Results of unrelated studies side by side (data: NIAID ChemDB).

Common to all: host cell toxicity; cells: THP-1; endpoint: CC50

Neighbouring rows are from separate reports. An empty or dashed field is not shown. CCn is the concentration with n% toxicity to the cells.

compound	read by	result
O=C(Nc1ccccc1Cl)c1c(O)ccc2ccccc12		>20 µM
COc1cc(C2C/C(=N/c3nc4c([N+](=O)[O-])cc(F)c(Cl)c4s3)NN2c2nc3ccc(F)c(Cl)c3s2)ccc1O	MTT	412.5 µg/mL
Fc1ccc(-c2nc(=S)[nH][nH]2)cc1	MTT	69.74 µg/mL
COc1ccc(OC)c2c1ccn2CCBr		0.011 µM
Oc1ccc(C2C/C(=N/c3nc4ccc(F)c(Cl)c4s3)NN2c2nc3ccccc3s2)cc1	MTT	447 µg/mL
CCC(C)Sc1n[nH]c(-c2ccc(C)cc2)n1	MTT	>100 µg/mL
N#Cc1cccc(S(=O)(=O)N(Cc2c(Cl)cccc2Cl)c2cccc(C(=O)NC3CCC3)c2)c1	absorbance	>33 µM
O=C(O)c1ccc(N2C(=O)c3cccc([N+](=O)[O-])c3C2=O)cc1O	visual reading / absorbance	>100 µg/mL
C#CCSc1n[nH]c(-c2ccc(Cl)cc2C)n1		>100 µg/mL
O=C1c2cc3ncsc3cc2C2=NCCn3ccc1c32		0.083 µM
CCCCSc1n[nH]c(-c2cccc([N+](=O)[O-])c2C)n1		>100 µg/mL
O=C1c2cc3scnc3cc2C2=NCCn3ccc1c32		0.615 µM
Nc1nc2c(sc(=O)n2C/C=C\CO)c(=O)[nH]1		>300 µM
Cc1c(Cl)cccc1-c1nc(=S)[nH][nH]1	MTT	76.44 µg/mL
CCCCCCCCOC(=O)c1cc([N+](=O)[O-])cc([N+](=O)[O-])c1		>512 µg/mL
CCSc1n[nH]c(-c2ccc(Cl)cc2C)n1		>100 µg/mL
FC(F)(F)c1cccc(-c2nc(=S)[nH][nH]2)c1	MTT	>100 µg/mL
CC1(C)CC2=C(O1)C(=O)c1cc3scnc3cc1C2=O		0.007 µM
Cc1ccnc(NC(=O)NS(=O)(=O)c2cc(NC(=O)CCl)ccc2Cl)n1	MTT	138 µg/mL
CC1(C)Cc2cccc(O)c2O1		0.01 µM
O=C(COc1ncnc2sccc12)N/N=C/c1ccc(Cl)cc1	MTT / absorbance	2260 µM
CCOc1cc(C2SCC(=O)N2NC(=O)c2nccnc2N)ccc1O	MTT	89.65 µg/mL
CC1(C)CC2=C(O1)C(=O)C(Br)=CC2=O		0.085 µM
COc1cc(C2C/C(=N/c3nc4cc([N+](=O)[O-])c(F)c(Cl)c4s3)NN2c2nc3ccc(F)c(Cl)c3s2)ccc1O	MTT	187.5 µg/mL
COc1ccc(/C=N/NC(=O)COc2ncnc3sccc23)cc1	MTT / absorbance	2450 µM
O=C(NCCc1ccccc1)c1ccc2ccccc2n1	WST	>100 µM
CCSc1n[nH]c(-c2ccc([N+](=O)[O-])c(C)c2)n1		>100 µg/mL
O=[N+]([O-])c1ccc(-c2nc(=S)[nH][nH]2)cc1C(F)(F)F	MTT	57.4 µg/mL
O=C(COc1ncnc2sccc12)N/N=C/c1ccccc1Br	MTT / absorbance	2390 µM
Cc1cccc(-c2nc(=S)[nH][nH]2)c1	MTT	>100 µg/mL
CC1(C)CC2=C(O1)C(=O)c1cc3ncsc3cc1C2=O		0.007 µM
CO[C@@H]1[C@H](N(C)C(=O)c2ccccc2)C[C@@]2(C)O[C@]1(C)n1c3ccccc3c3c4c(c5c6ccccc6n2c5c31)C(=O)NC4	fluorescence	>5 µM

3 of the rows above, restated:

compound,read by,result
Nc1nc2c(sc(=O)n2C/C=C\CO)c(=O)[nH]1,,>300 µM
O=C(NCCc1ccccc1)c1ccc2ccccc2n1,WST,>100 µM
Fc1ccc(-c2nc(=S)[nH][nH]2)cc1,MTT,69.74 µg/mL